Reference: the supplement of paper PMC9701192
± gives the uncertainty stated by the source.

Tested on: PC9
Test: mass response relative to vehicle control (EMD distance of treated vs reference mass distribution minus control baseline) (% of mean reference cell mass); higher = larger drug-induced change in single-cell mass distribution (stronger response)
Experimental: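 Cancer cell lines were treated in vitro with drugs at the listed doses (about 24 h; 0.25% DMSO vehicle). Single-cell buoyant mass was measured on suspended microchannel resonator instruments with CNN image curation, 2500 cells per condition. Mass response is the Earth Mover's Distance to vehicle-treated reference cells as % of mean reference mass.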

`O=P1(N(CCCl)CCCl)NC(SCCS(=O)(=O)O)CCO1` (centres undefined) [Mafosfamide] gave a mass response (0.1 µM) of -1.92 ± 4.9, a mass response (1 µM) of 4.71 ± 9 and a mass response (10 µM) of 12 ± 10. For the same compound, the mass response (50 µM) was 27.7 ± 8.
